Measurements taken from patent US20240122894A1, “METHODS TO SYNTHESIZE FLAVONOID DIMERS AND OLIGOMERS AND THE USE THEREOF” (National University of Singapore, priority 2020, published 2024).
“And” between values parts separate entries of the source, which are not always exact repeats. Identical values can stand only once.

Assay: EPR spectra of flavonoid radicals (hyperfine coupling constants, linewidth, center field)
Conditions: for G value: flavonoid radical, simulated EPR spectrum

O=c1cc(-c2ccc(O)c(O)c2)oc2ccccc12 [3′,4′-dihydroxyflavone]
center field (CF) (pH 10): 328.348 mT
linewidth (LW) (pH 10): 0.02 mT
G value (pH 10): 2.0002

O=c1cc(-c2ccc(O)c(O)c2)oc2cc(O)ccc12 [7,3′,4′-trihydroxyflavone]
center field (CF) (pH 11): 328.348 mT
linewidth (LW) (pH 11): 0.02 mT
G value (pH 11): 2.0002

O=c1cc(-c2ccc(O)c(O)c2-c2c(O)cc3oc(-c4ccc(O)c(O)c4)cc(=O)c3c2O)oc2cc(O)cc(O)c12 [Compound 2a, 6-(6-(5,7-dihydroxy-4-oxo-4H-chromen-2-yl)-2,3-dihydroxyphenyl)-2-(3,4-dihydroxyphenyl)-5,7-dihydroxy-4H-chromen-4-one]
center field (CF) (pH 11.5): 328.348 mT
linewidth (LW) (pH 11.5): 0.02 mT
G value (pH 11.5, listed as Dicranolomin): 2.0002 and 2
